Measurements reported in PubChem BioAssay AID1259414 (Drosophila RNAi Screening Center, 2018)

Purpose: 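Fly genes that alter Wolbachia amount inside host cells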 (primary screen)
System: Drosophila JW18 cells infected with Wolbachia
Reagent: long dsRNA against Drosophila genes, 0.25 µg dsRNA per well of a 384-well plate
Time to read-out: 5 days
Challenge: cells persistently infected with Wolbachia before knock-down; no added drug
Detection: 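Automated imaging of bacterial rRNA staining divided by host cell count, reported as plate-normalised robust z-score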
Direction: Wolbachia per cell robust z: higher = more Wolbachia per host cell than the plate typical
Hit rule: 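Hit when robust z is 1.5 or more, or -1.5 or less, in at least two of three replicates; excludes dsRNAs with several or no targets, genes not expressed in JW18 and well A1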
The screen tested about 24,000 reagents; this is an unselected part of those with a known target gene and a result. In the full data, about 1,210 (5%) got an active call. 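Inactive calls also include excluded dsRNAs with several or no targets, genes unexpressed in JW18, and well A1, regardless of score.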 Unmarked entries are inactive. Names joined by + are all predicted targets of the reagent. No sequences are given here.

| gene knocked down | dsRNA | Wolbachia per cell robust z, rep 1 | Wolbachia per cell robust z, rep 2 | Wolbachia per cell robust z, rep 3 |
| --- | --- | --- | --- | --- |
| Adgf-C (Adenosine deaminase-related growth factor C) | DRSC16473 | 0.346 | 0.0412 | -2.36 |
| Adgf-C (Adenosine deaminase-related growth factor C) | DRSC27008 | 0.742 | 0.372 | -2.54 |
| mahj (mahjong) | DRSC04053 | 0.654 | -0.127 | 0.302 |
| C15 | DRSC13495 | 0.725 | 0.72 | 0.312 |
| asRNA:CR43470 + CG14830 | DRSC10200 | 0.804 | -3.77 | 0.506 |
| CG33766 | DRSC37843 | 0.567 | -1.77 | -2.16 |
| Nasp + CG34135 + CG11768 | DRSC16397 | 0.991 | 2.28 | 1.58 |
| Nasp + CG34135 + CG11768 | DRSC27430 | -6.68 | -1.67 | -1.98 |
| CG8237 | DRSC07119 | 0.379 | -0.127 | -0.907 |
| CG8237 | DRSC26686 | -0.0739 | -1.21 | -0.25 |
| CG15882 | DRSC19735 | -0.561 | -1 | 0.415 |
| TwdlX (TweedleX) | DRSC19151 | -0.0553 | -1.3 | 0.0886 |
| TwdlX (TweedleX) | DRSC29528 | 0.232 | 0.612 | 0.453 |
| Cec2 (Cecropin 2) | DRSC21885 | -1.4 | -0.0945 | -1.58 |
| Cec2 (Cecropin 2) | DRSC29067 | -0.675 | -1.88 | -0.99 |
| chn (charlatan) | DRSC06086 | 1.29 (active) | 2.21 | 2.92 |
| chn (charlatan) | DRSC29342 | 0.21 | 0.71 | -3.51 |
| Tm2 (Tropomyosin 2) | DRSC16887 | -0.822 | 0.835 | 1.15 |
| Tm2 (Tropomyosin 2) | DRSC26884 | -1.21 | -0.637 | -1.94 |
| Mrtf (Myocardin-related transcription factor) | DRSC08410 | 2.3 (active) | -0.521 | 1.96 |
| Mrtf (Myocardin-related transcription factor) | DRSC23194 | 0.0366 | 0.406 | 0.771 |
| Mrtf (Myocardin-related transcription factor) | DRSC30105 | 1.34 | 2.4 | 1.08 |
| Pcmt (Protein-L-isoaspartate (D-aspartate) O-methyltransferase) | DRSC12363 | -0.642 | -3.53 | 0.05 |
| CAH13 (Carbonic anhydrase 13) | DRSC06128 | -0.222 | -0.712 | -0.0844 |
| CAH13 (Carbonic anhydrase 13) | DRSC24093 | -4.17 | -2.87 | -0.504 |
| CG15172 | DRSC02473 | -9.18 | 0.579 | 0.121 |
| CG15172 | DRSC27372 | 0.556 | 0.843 | 0.664 |
| CG15577 | DRSC18065 | -1.72 | -0.00881 | -0.793 |
| CG11379 | DRSC18629 | 0.319 | -0.389 | -0.212 |
| CG10195 | DRSC02026 | 0.232 | 0.488 | 0.838 |
| Alms1a + Alms1b | DRSC27416 | 0.0252 | -6.26 | 0.0915 |
| Optix | DRSC05078 | 0.8 | -0.153 | 0.196 |
| Optix | DRSC07484 | -0.127 | -0.243 | -0.568 |
| Optix | DRSC21963 | 0.738 | 0.295 | 0.373 |
| Optix | DRSC29089 | 0.911 | 0.198 | 0.437 |
| Chro (Chromator) | DRSC11630 | -0.00487 | 0.965 | 0.591 |

In a second layout: results already given
Nasp + CG34135 + CG11768 [DRSC27430] | Wolbachia per cell robust z, rep 1: -6.68; Wolbachia per cell robust z, rep 2: -1.67; Wolbachia per cell robust z, rep 3: -1.98
CG8237 [DRSC07119] | Wolbachia per cell robust z, rep 1: 0.379; Wolbachia per cell robust z, rep 2: -0.127; Wolbachia per cell robust z, rep 3: -0.907
CG8237 [DRSC26686] | Wolbachia per cell robust z, rep 1: -0.0739; Wolbachia per cell robust z, rep 2: -1.21; Wolbachia per cell robust z, rep 3: -0.25
CG15882 [DRSC19735] | Wolbachia per cell robust z, rep 1: -0.561; Wolbachia per cell robust z, rep 2: -1; Wolbachia per cell robust z, rep 3: 0.415
TwdlX (TweedleX) [DRSC19151] | Wolbachia per cell robust z, rep 1: -0.0553; Wolbachia per cell robust z, rep 2: -1.3; Wolbachia per cell robust z, rep 3: 0.0886
TwdlX (TweedleX) [DRSC29528] | Wolbachia per cell robust z, rep 1: 0.232; Wolbachia per cell robust z, rep 2: 0.612; Wolbachia per cell robust z, rep 3: 0.453
Cec2 (Cecropin 2) [DRSC21885] | Wolbachia per cell robust z, rep 1: -1.4; Wolbachia per cell robust z, rep 2: -0.0945; Wolbachia per cell robust z, rep 3: -1.58
Cec2 (Cecropin 2) [DRSC29067] | Wolbachia per cell robust z, rep 1: -0.675; Wolbachia per cell robust z, rep 2: -1.88; Wolbachia per cell robust z, rep 3: -0.99
chn (charlatan) [DRSC06086] | Wolbachia per cell robust z, rep 1: 1.29 (active); Wolbachia per cell robust z, rep 2: 2.21; Wolbachia per cell robust z, rep 3: 2.92
chn (charlatan) [DRSC29342] | Wolbachia per cell robust z, rep 1: 0.21; Wolbachia per cell robust z, rep 2: 0.71; Wolbachia per cell robust z, rep 3: -3.51
Tm2 (Tropomyosin 2) [DRSC16887] | Wolbachia per cell robust z, rep 1: -0.822; Wolbachia per cell robust z, rep 2: 0.835; Wolbachia per cell robust z, rep 3: 1.15

Further results follow:
| gene knocked down | dsRNA | Wolbachia per cell robust z, rep 1 | Wolbachia per cell robust z, rep 2 | Wolbachia per cell robust z, rep 3 |
| --- | --- | --- | --- | --- |
| Sse (Separase) | DRSC09746 | 2.8 (active) | 1.63 | 1.35 |
| rn (rotund) | DRSC12543 | -0.193 | 0.597 | 0.901 |
| rn (rotund) | DRSC12544 | 0.126 | 0.141 | 1.12 |
| rn (rotund) | DRSC12546 | 0.407 | -0.4 | -0.528 |
| rn (rotund) | DRSC22291 | 0.888 | 0.464 | 1.05 |
| rn (rotund) | DRSC25073 | -0.779 | -1.32 | -1.36 |
| rn (rotund) | DRSC27211 | 0.524 | 0.72 | -4.92 |
| CG32271 | DRSC08198 | -0.433 | -0.244 | 0.235 |
| CG32271 | DRSC27093 | 0.763 | 0.624 | 0.246 |
| r2d2 | DRSC03014 | 0.724 | 0.451 | -0.155 |
| r2d2 | DRSC29562 | 1.14 | 0.866 | 0.518 |
| E(spl)m2-BFM (Enhancer of split m2, Bearded family member) | DRSC23082 | -1.76 (active) | -0.89 | -1.96 |
| E(spl)m2-BFM (Enhancer of split m2, Bearded family member) | DRSC40725 | 0.888 | 0.775 | 0.365 |
| QC (Glutaminyl cyclase) | DRSC09736 | 0.205 | -0.503 | 1.15 |
| GstE11 (Glutathione S transferase E11) | DRSC06926 | -1.56 (active) | -0.989 | -2.21 |
| beat-IIIa (beaten path IIIa) | DRSC01577 | 0.342 | -0.623 | 0.0514 |
| beat-IIIa (beaten path IIIa) | DRSC02178 | 1.4 | -5.19 | 1.29 |
| beat-IIIa (beaten path IIIa) | DRSC41360 | -0.398 | -0.176 | -2.6 |
| Tdrd3 (Tudor domain containing 3) | DRSC10016 | 0.336 | 0.518 | 0.569 |
| CG13198 | DRSC06323 | -1.6 | 0.465 | -1.5 |
| Cpr64Ab (Cuticular protein 64Ab) | DRSC08461 | -0.252 | -0.845 | -0.347 |
| Cpr64Ab (Cuticular protein 64Ab) | DRSC25195 | 1.92 | 0.144 | 0.749 |
| tbrd-3 | DRSC04295 | 0.103 | 0.116 | 0.865 |
| tbrd-3 | DRSC26310 | -1.55 | 0.301 | 0.601 |
| Tsf1 (Transferrin 1) | DRSC20296 | -0.305 | -0.139 | 0.951 |
| Tsf1 (Transferrin 1) | DRSC28246 | -0.93 | -0.604 | -0.123 |
| cpx (complexin) | DRSC11999 | -0.718 | -0.445 | 0.574 |
| CG8586 | DRSC07218 | 0.869 | 1.08 | -0.0593 |
| CG4860 | DRSC15664 | -4.29 (active) | 0.91 | -2.92 |
| CG4860 | DRSC21755 | -1.63 | 0.351 | 0.053 |
| Pbp95 (PSEA-binding protein 95kD) | DRSC15448 | 0.885 | -0.17 | -0.342 |
| Pbp95 (PSEA-binding protein 95kD) | DRSC27283 | -0.347 | 0.479 | 0.739 |
| Gli (Gliotactin) | DRSC03332 | 0.772 | 0.699 | 1.8 |
| SmydA-1 (SET and MYND domain containing, arthropod-specific, member 1) | DRSC07200 | -1.71 (active) | 0.275 | -1.62 |
| Su(var)2-HP2 | DRSC06204 | -1.47 (active) | -1.71 | -4.75 |
| Su(var)2-HP2 | DRSC29542 | 0.191 | 0.604 | -0.207 |
| CG14194 | DRSC19549 | -0.14 | -1.21 | -0.376 |
| Noc1 (Nucleolar complex protein 1) | DRSC10921 | 0.336 | -0.507 | -0.298 |
| CG14331 | DRSC14810 | 0.024 | 1.08 | -0.101 |
| CG6013 | DRSC15947 | 0.0989 | -0.198 | 2.35 |
| CG6013 | DRSC29573 | 0.275 | -0.36 | -0.648 |
| OtopLc (Otopetrin-like c) | DRSC18082 | -0.475 | 0.144 | -0.477 |
| OtopLc (Otopetrin-like c) | DRSC18083 | -0.0387 | 1.33 | -2.22 |
| OtopLc (Otopetrin-like c) | DRSC18132 | 0.668 | 1.19 | 0.737 |
| OtopLc (Otopetrin-like c) | DRSC25719 | -0.295 | 0.904 | -0.357 |
| OtopLc (Otopetrin-like c) | DRSC25756 | -0.479 | -0.399 | -1.82 |
| OtopLc (Otopetrin-like c) | DRSC28477 | -1.19 (active) | -2.53 | -1.6 |
| CR15345 (pseudo) | DRSC18030 | -0.561 | -1.1 | -0.0242 |
| CR15345 (pseudo) | DRSC22712 | -2.5 | 0.508 | 0.586 |
| CG30120 + Lamtor2 | DRSC05726 | 0.61 | 5.11 | 1.23 |
| CG30120 + Lamtor2 | DRSC06922 | -3.28 | -0.267 | -1.18 |
